Test results: ChEMBL document CHEMBL1687837, “Roles of residues Cys69, Asn104, Phe160, Gly232, Ser237, and Asp240 in extended-spectrum beta-lactamase Toho-1” (2011)

Legend:
[1] = tested on: Escherichia coli; experiment: Ratio of Kcat to Km for Escherichia coli beta-lactamase Toho-1 N104D mutant assessed as compound hydrolysis by spectrophotometry
[2] = tested on: Escherichia coli; experiment: Ratio of Kcat to Km for Escherichia coli beta-lactamase Toho-1 F160T mutant assessed as compound hydrolysis by spectrophotometry
[3] = tested on: Escherichia coli; experiment: Activity of Escherichia coli beta-lactamase Toho-1 C69A mutant assessed as compound hydrolysis by spectrophotometry
[4] = tested on: Escherichia coli; experiment: Activity of Escherichia coli beta-lactamase Toho-1 […] mutant assessed as compound hydrolysis by spectrophotometry
[5] = tested on: Escherichia coli; experiment: Activity of Escherichia coli beta-lactamase Toho-1 G232A mutant assessed as compound hydrolysis by spectrophotometry
[6] = tested on: Escherichia coli; experiment: Ratio of Kcat to Km for Escherichia coli beta-lactamase Toho-1 D240S mutant assessed as compound hydrolysis by spectrophotometry
[7] = tested on: Escherichia coli; experiment: Activity of Escherichia coli beta-lactamase Toho-1 N104A mutant assessed as compound hydrolysis by spectrophotometry
[8] = tested on: Escherichia coli; experiment: Ratio of Kcat to Km for Escherichia coli beta-lactamase Toho-1 G232A mutant assessed as compound hydrolysis by spectrophotometry
[9] = tested on: Escherichia coli; experiment: Ratio of Kcat to Km for Escherichia coli beta-lactamase Toho-1 D240A mutant assessed as compound hydrolysis by spectrophotometry
[10] = tested on: Escherichia coli; experiment: Ratio of Kcat to Km for Escherichia coli beta-lactamase Toho-1 […] mutant assessed as compound hydrolysis by spectrophotometry
[11] = tested on: Escherichia coli; experiment: Ratio of Kcat to Km for Escherichia coli beta-lactamase Toho-1 N104A mutant assessed as compound hydrolysis by spectrophotometry
[12] = tested on: Escherichia coli; experiment: Activity of Escherichia coli beta-lactamase Toho-1 D240A mutant assessed as compound hydrolysis by spectrophotometry
[13] = tested on: Escherichia coli; experiment: Activity of Escherichia coli beta-lactamase Toho-1 F160T mutant assessed as compound hydrolysis by spectrophotometry
[14] = tested on: Escherichia coli; experiment: Ratio of Kcat to Km for Escherichia coli beta-lactamase Toho-1 C69A mutant assessed as compound hydrolysis by spectrophotometry
[15] = tested on: Escherichia coli; experiment: Activity of Escherichia coli beta-lactamase Toho-1 N104D mutant assessed as compound hydrolysis by spectrophotometry
[16] = tested on: Escherichia coli; experiment: Activity of Escherichia coli beta-lactamase Toho-1 D240S mutant assessed as compound hydrolysis by spectrophotometry

CC1(C)S[C@@H]2[C@H](NC(=O)Cc3ccccc3)C(=O)N2[C@H]1C(=O)O gave a kcat/Km [1] of 7.4 ×10⁵ /s/M, a kcat/Km [2] of 2.9 ×10⁶ /s/M and a Km [3] of 16 µM. It also gave a Km [4] of 46 µM, a Km [5] of 25 µM and a kcat/Km [6] of 2.2 ×10⁶ /s/M. The Km [7] was 29 µM, the kcat/Km [8] was 2.3 ×10⁶ /s/M and the kcat/Km [9] was 1.8 ×10⁶ /s/M. It also gave a kcat/Km [10] of 6.1 ×10⁶ /s/M, a kcat/Km [11] of 1.1 ×10⁶ /s/M and a Km [12] of 16 µM. For the same compound, the Km [13] was 22 µM, the kcat [13] was 64 s⁻¹ and the kcat/Km [14] was 3.5 ×10⁶ /s/M. It also gave a Km [15] of 51 µM, a kcat [15] of 38 s⁻¹ and a Km [16] of 17 µM. For the same compound, the kcat [16] was 37 s⁻¹.
